Compound potency records, mixed from different reports. Data source: NIAID ChemDB in PubChem.

Common to all: enzyme or target tests; species: HIV-1; protein: Integrase; endpoint: IC50

Blank or dashed fields: not listed here. Lines come from different laboratories, so protocols vary. ICn is the concentration giving n% inhibition.

{"structure": "COc1cc(/C=C/c2ccc3ccc(C(=O)O)c(O)c3n2)cc(O)c1O", "method": "3′ processing", "value": "1 µM"}
{"structure": "O=NNc1ccc(S(=O)(=O)c2ccc(NN=O)cc2)cc1", "method": "strand transfer", "value": "6.1 µM"}
{"structure": "Cc1cc(O)c2c(c1)C(=O)C1(C)C(=C2O)C(=O)[C@H]2[C@H](O)[C@H]3[C@@H](O)[C@@H]1C(=O)C1=C(O)c4c(O)cc(C)cc4C(=O)C132", "method": "absorbance", "value": "19 µM"}
{"structure": "Cc1cn(C2CC(OP(=O)(O)OCC3OC(n4cnc5c(=O)[nH]c(N)nc54)CC3O)C(COP(=O)(O)O)O2)c(=O)[nH]c1=O", "method": "strand transfer", "value": "31 µM"}
{"structure": "COc1cccc2c1C(=N)c1c(O)c3c(c(O)c1C2=O)C[C@@](O)(C(C)=O)C[C@@H]3O[C@H]1C[C@H](N)[C@H](O)[C@H](C)O1", "method": "strand transfer", "value": "16.2 µM"}
{"structure": "CCCCOC(=O)C(=O)CC(=O)c1cccn1Cc1ccc(F)cc1", "method": "binding", "value": "0.24 µM"}
{"structure": "O=C1/C(=C/c2ccc(O)c(O)c2)CC(C(=O)O)C/C1=C\\c1ccc(O)c(O)c1", "method": "disintegration", "value": "0.1 µM"}
{"structure": "Cc1cn(C2CC(O)C(COP(=O)(O)OC3CC(n4cc(C)c(=O)[nH]c4=O)OC3COP(=O)(O)OC3CC(n4ccc(N)nc4=O)OC3COP(=O)(O)O)O2)c(=O)[nH]c1=O", "method": "3′ processing", "value": ">100 µM"}
{"structure": "CN(C)C1C(=O)C(C(=O)NCNC(CO)(CO)CO)=C(O)C2(O)C(=O)C3=C(O)c4c(O)cccc4C(C)(O)C3CC12", "method": "strand transfer", "strain": "RF", "value": "1.6 µM"}
{"structure": "CCOC(=O)CC(=O)c1cccn1Cc1ccc(F)cc1", "method": "strand transfer", "value": ">100 µM"}
{"structure": "NC(N)=NC(N)=Nc1cccc(S(=O)(=O)c2cccc(N=C(N)N=C(N)N)c2)c1", "method": "strand transfer", "value": ">100 µM"}
{"structure": "CCN(CC)Cc1cc(Nc2ccnc3cc(Cl)ccc23)ccc1O", "method": "strand transfer", "value": ">100 µM"}
{"structure": "O=C1NC(=O)C(=Cc2cc(O)c(O)c(O)c2)C(=O)N1", "method": "3′ processing", "value": "3 µM"}
{"structure": "Cc1cn(C2CC(O)C(COP(=O)(O)OC3CC(n4cnc5c(N)ncnc54)OC3COP(=O)(O)O)O2)c(=O)[nH]c1=O", "method": "3′ processing", "value": "7 µM"}
{"structure": "COc1cc(NC2=C(Cl)C(=O)C(Nc3cc(OC)c(OC)c(OC)c3)C(Cl)C2=O)cc(OC)c1OC", "method": "3′ processing", "value": ">250 µM"}
{"structure": "CC(C)OC(=O)C(=O)CC(=O)c1cccn1Cc1ccc(F)cc1", "method": "binding", "value": "0.32 µM"}
{"structure": "CC(C)=CCC[C@H](C)[C@H]1CC[C@]2(C)C[C@H]3[C@@H](C(=O)C[C@@]3(C)O)C(C=O)=C[C@@H]12", "method": "strand transfer", "value": ">120 µM"}
{"structure": "COc1ccc(OC)c(-c2cc(=O)c3c(OC)c(OC)c(OC)c(OC)c3o2)c1", "method": "3′ processing", "value": ">250 µM"}
{"structure": "Nc1nc2c(ncn2C2CC(O)C(COP(=O)(O)OC3CC(n4cnc5c(N)ncnc54)OC3COP(=O)(O)O)O2)c(=O)[nH]1", "method": "3′ processing", "value": "15 µM"}
{"structure": "O=C(O)c1ccc(S(=O)(=O)c2ccc(C(=O)O)c(C(=O)O)c2)cc1C(=O)O", "method": "3′ processing", "value": "29.8 µM"}
{"structure": "O=c1cc2ccccc2c(O)n1O", "method": "strand transfer", "value": "2.89 µM"}
{"structure": "Cn1cc(NC(=O)c2cc(NC(=O)c3cc(NC=O)cn3C)cn2C)cc1C(=O)NCCC(=N)N", "method": "3′ processing / substrate cleavage", "value": ">100 µM"}
{"structure": "Cc1cn(C2CC(O)C(COP(=O)(O)OC3CC(n4ccc(N)nc4=O)OC3COP(=O)(O)O)O2)c(=O)[nH]c1=O", "method": "3′ processing", "value": "8 µM"}
{"structure": "O=C(Nc1ccc(Nc2ccncc2)cc1)c1ccc(Nc2ccnc3ccc([N+](=O)[O-])cc23)cc1[N+](=O)[O-]", "method": "3′ processing", "value": "40 µM"}
{"structure": "Nc1ccn(C2CC(OP(=O)(O)OCC3OC(n4cnc5c(N)ncnc54)CC3O)C(COP(=O)(O)O)O2)c(=O)n1", "method": "3′ processing", "value": "105 µM"}
{"structure": "CC[C@@]1(O)C(=O)OCc2c1cc1n(c2=O)Cc2cc3cc4c(cc3nc2-1)OCO4", "method": "strand transfer", "value": ">100 µM"}
{"structure": "CC(=O)Oc1ccc(S(=O)(=O)c2ccc(OC(C)=O)cc2)cc1", "method": "strand transfer", "value": ">100 µM"}
{"structure": "COc1cc(C)cc2c1C(=O)c1c(cc(O)c(O)c1O)C2=O", "method": "absorbance", "value": "6 µM"}
{"structure": "CCC(CCl)NC(=O)Nc1ccc(S(=O)(=O)c2ccc([N+](=O)[O-])cc2)cc1", "method": "3′ processing", "value": ">100 µM"}
{"structure": "Cc1cnc(NCCCN(C)C)c2c1[nH]c1ccc3cc(O)ccc3c12", "method": "3′ processing / substrate cleavage", "value": "33.4 µM"}
{"structure": "COc1ccccc1NC(=O)C1=CNC(C)=C(C(=O)Nc2ccccc2OC)C1c1c(Cl)cccc1Cl", "method": "3′ processing", "value": ">250 µM"}
{"structure": "O=C(O)/C=C/c1ccc(O)c(O)c1", "method": "strand transfer", "value": "24 µM"}
{"structure": "Cc1cn(C2CC(OP(=O)(O)OCC3OC(n4ccc(N)nc4=O)CC3O)C(COP(=O)(O)OC3CC(n4cnc5c(=O)[nH]c(N)nc54)OC3COP(=O)(O)O)O2)c(=O)[nH]c1=O", "method": "strand transfer", "value": "9 µM"}
{"structure": "OC1/C(=C/c2ccc(Cl)c(Cl)c2)COC/C1=C\\c1ccc(Cl)c(Cl)c1", "method": "3′ processing", "value": ">100 µM"}
{"structure": "Oc1ccc2c(c1)OC[C@]1(O)Cc3cc(O)c(O)cc3[C@H]21", "method": "3′ processing", "value": "9.6 µM"}
{"structure": "O=C(/C=C/c1ccc(O)c(O)c1)OCCc1ccccc1", "method": "strand transfer", "value": "18.9 µM"}
{"structure": "CC(=O)O[C@H](C)[C@@H]1C2=C(C(=O)C[C@]1(C)O)C(=O)c1c(ccc(-c3ccc4c(c3O)C(=O)C3=C(C4=O)[C@@H]([C@@H](C)OC(C)=O)[C@@](C)(O)CC3=O)c1O)C2=O", "method": "strand transfer", "strain": "RF", "value": "140 µM"}
{"structure": "O=c1oc2c(O)c(O)cc3c(=O)oc4c(O)c(O)cc1c4c23", "method": "3′ processing", "value": "1.2 µM"}
{"structure": "Cc1c2cc[n+](C)cc2c(C)c2c1[nH]c1ccc(O)cc12", "method": "strand transfer", "value": "10.3 µM"}
{"structure": "O/N=C1\\C(=C\\c2ccc3c(c2)OCO3)CCCC1C(NO)c1ccc2c(c1)OCO2", "method": "strand transfer", "strain": "RF", "value": ">200 µM"}
{"structure": "Cc1cn(C2CC(O)C(COP(=O)(O)OC3CC(n4cnc5c(=O)[nH]c(N)nc54)OC3COP(=O)(O)O)O2)c(=O)[nH]c1=O", "method": "3′ processing", "value": "22 µM"}
{"structure": "COc1cccc2c1C(=O)c1c(O)c3c(c(O)c1C2=O)C[C@@](O)(C(=O)CO)C[C@@H]3O[C@H]1C[C@H](N(C)C)[C@H](O)[C@H](C)O1", "method": "3′ processing", "strain": "RF", "value": "2.3 µM"}
{"structure": "N#CC(C#N)=NNc1ccc(S(=O)(=O)c2ccc(NN=C(C#N)C#N)cc2)cc1", "method": "disintegration", "value": "63.5 µM"}
{"structure": "O=C1NC(=S)NC(=O)C1=Cc1cc(O)c(O)c(O)c1", "method": "strand transfer", "value": "1.6 µM"}
{"structure": "CN(C)[C@H]1C(=O)C(C(=O)NCN2CCN(C(=N)N=C(N)N)CC2)=C(O)[C@]2(O)C(=O)C3=C(O)c4c(O)cccc4[C@](C)(O)[C@@H]3C[C@H]12", "method": "3′ processing", "strain": "RF", "value": "0.9 µM"}

The last 3 rows once more:

structure | method | strain | value
N#CC(C#N)=NNc1ccc(S(=O)(=O)c2ccc(NN=C(C#N)C#N)cc2)cc1 | disintegration |  | 63.5 µM
O=C1NC(=S)NC(=O)C1=Cc1cc(O)c(O)c(O)c1 | strand transfer |  | 1.6 µM
CN(C)[C@H]1C(=O)C(C(=O)NCN2CCN(C(=N)N=C(N)N)CC2)=C(O)[C@]2(O)C(=O)C3=C(O)c4c(O)cccc4[C@](C)(O)[C@@H]3C[C@H]12 | 3′ processing | RF | 0.9 µM